In patent US20260250325A1, “Antiviral Polypeptide Membrane Fusion Inhibitor, and Preparation Method and Application Thereof” (priority 2025, published 2026):

System: RSV A long virus strain
Assay type: cell-based
Details: CC50/IC50, HEp-2 cells
Description: In this embodiment, an RSV-A long virus strain was used as an infection virus in the present disclosure. The anti-RSV activity of the synthesized polypeptide was determined through CPE detection.
The inhibitory activity of the compounds of Table 1-1-Table 1-5, positive polypeptide in Table 1-11, and positive control T-118 against the RSV-A long virus strain was detected.
Human Epithelial Pharyngeal Carcinoma Cells (HEp-2) were from the American Type Culture Collection (ATCC), with a catalog number CCL-23. The cells were cultured in a DMEM culture solution in which 10% fetal bovine serum, 1% sodium pyruvate, 1% nonessential amino acids, 2 mM glutamine, 100 U/mL penicillin, and 100 μg/mL streptomycin were added. The RSV A long virus strain was from the ATCC, with a catalog number VR-26.
This study used a plaque reduction experiment to detect the in-vitro activity of a test sample against the RSV A long virus strain. The test sample and a control compound were tested at 8 concentrations in duplicated wells. The HEp-2 cells were digested with trypsin and then diluted to a concentration of 300,000 cells per milliliter by using an experimental culture solution. The diluted cells were added to a 96-well cell test board, with 100 μL per well, corresponding to 30000 cells per well. The cells were cultured overnight in a 37° C. incubator with 5% CO2. On the second day, the test sample was diluted in an experimental culture medium at a fold ratio. The sample diluted at a fold ratio and an equal volume of virus (100 PFU per well) were well mixed and incubated at 37° C. in 5% CO2 for 1 h. Then, the culture solution in the 96-well cell test board was discarded, the sample virus mixed solution (200 μL) was added to the 96-well cell culture plate, and incubated at 37° C. in 5% CO2 for 2 hours. After 2 h, the sample virus mixed solution was discarded, and 200 μL of maintenance culture medium containing 0.8% CMC and the corresponding concentration of the test sample was added. A cell control (cells, without compound treatment or viral infection) and a viral control (cell infection virus, without compound treatment) were set. The cells were cultured for 1 day in the 37° C. incubator with 5% CO2. One day after viral infection, the culture medium was discarded, the cells were fixed with 4% paraformaldehyde, and then permeabilization was performed with 0.5% Triton X-100. After the plate was washed with DPBS, an RSV-specific antibody (RSV antibody, diluted 1:3000) was added and incubated at 37° C. for 1 h. Then, a secondary antibody (donkey anti-goat IgG, diluted 1:500) and incubated at 37° C. for 1 h. The secondary antibody was discarded, a TrueBlue solution was added, dyeing was performed for 10 min; and the plate was washed with running water and then air-dried, and the number of spots in each well was counted by using a microplate imaging counter. Raw data was used for calculating the antiviral activity of the samples.
The raw data for plaque counts and cell viability tests were used for analyzing the antiviral activity and cytotoxicity of the test samples, respectively. A calculation formula was shown as follows.
% inhibition rate=100−(sample value-cell control average value)/(virus control average value-cell control average value)×100%
Non-linear fitting analysis was performed on the inhibition rate of the sample by using GraphPad Prism (version 10), so as to calculate the IC50 and CC50 values for the sample.
IC50: in an in-vitro antiviral activity experiment, IC50 represented an inhibition ability indicator of a compound to be tested against the Hep-2 cells infected by the RSV A long virus strain.

Row | Compound | Safety index (SI)
1 | CC[C@H](C)[C@H](NC(=O)[C@H](CCCCN)NC(=O)[C@H](CCCCN)NC(=O)[C@H](CC(C)C)NC(=O)[C@H](CO)NC(=O)[C@H](CCC(=O)O)NC(=O)[C@H](CCC(=O)O)NC(=O)[C@@H](NC(=O)[C@H](CCCCN)NC(=O)[C@H](CCCCN)NC(=O)[C@H](CC(N)=O)NC(=O)[C@@H](NC(=O)[C@H](CCC(=O)O)NC(=O)[C@H](CCC(=O)O)NC(=O)[C@@H](NC(=O)[C@H](CCCCN)NC(=O)[C@H](CCCCN)NC(=O)[C@H](CC(=O)O)NC(=O)[C@H](Cc1ccccc1)NC(=O)[C@H](CCC(=O)O)NC(=O)C(CC(=O)O)NC(C)=O)[C@@H](C)CC)C(C)C)[C@@H](C)CC)C(=O)N[C@@H](CCC(=O)O)C(=O)N[C@@H](CCC(=O)O)C(=O)N[C@@H](CO)C(=O)N[C@@H](CC(=O)O)C(=O)N[C@@H](CCCCN)C(=O)N[C@@H](CCCCN)C(=O)N[C@@H](CC(C)C)C(=O)N[C@@H](CCC(=O)O)C(=O)N[C@@H](CCC(=O)O)C(=O)N[C@H](C(=O)N[C@@H](CC(N)=O)C(=O)N[C@@H](CCC(=O)O)C(=O)N[C@@H](C)C(=O)N[C@@H](C)C(=O)N[C@@H](C)C(=O)N[C@@H](CCCCN)C(=O)N[C@@H](CCCCNC(=O)CCC(=O)O[C@H]1CC[C@@]2(C)C(=CC[C@H]3[C@@H]4CC[C@H]([C@H](C)CCCC(C)C)[C@@]4(C)CC[C@@H]32)C1)C(N)=O)C(C)C (stereo partly shown) [Compound 14] (Ac-[ξD]EFDKKIEEVNKKIEESLKKIEESDKKLEEVNEAAAKK(Succinyl(4-O-cholesteryl))-NH2) | 970
2 | CC[C@H](C)[C@H](NC(=O)[C@H](CCCCN)NC(=O)[C@H](CCCCN)NC(=O)[C@H](CC(C)C)NC(=O)[C@H](CO)NC(=O)[C@H](CCC(=O)O)NC(=O)[C@H](CCC(=O)O)NC(=O)[C@@H](NC(=O)[C@H](CCCCN)NC(=O)[C@H](CCCCN)NC(=O)[C@H](CC(N)=O)NC(=O)[C@@H](NC(=O)[C@H](CCC(=O)O)NC(=O)[C@H](CCC(=O)O)NC(=O)[C@@H](NC(=O)[C@H](CCCCN)NC(=O)[C@H](CCCCN)NC(=O)[C@H](CC(=O)O)NC(=O)[C@H](Cc1ccccc1)NC(=O)[C@H](CCC(=O)O)NC(=O)[C@H](CC(=O)O)NC(=O)[C@H](CO)NC(C)=O)[C@@H](C)CC)C(C)C)[C@@H](C)CC)C(=O)N[C@@H](CCC(=O)O)C(=O)N[C@@H](CCC(=O)O)C(=O)N[C@@H](CO)C(=O)N[C@@H](CC(=O)O)C(=O)N[C@@H](CCCCN)C(=O)N[C@@H](CCCCN)C(=O)N[C@@H](CC(C)C)C(=O)NCC(=O)N[C@@H](CO)C(=O)NCC(=O)N[C@@H](CO)C(=O)NCC(=O)N[C@@H](CCCCNC(=O)CCC(=O)O[C@H]1CC[C@@]2(C)C(=CC[C@H]3[C@@H]4CC[C@H]([C@H](C)CCCC(C)C)[C@@]4(C)CC[C@@H]32)C1)C(N)=O [Compound 20] (Ac-SDEFDKKIEEVNKKIEESLKKIEESDKKLGSGSGK(Succinyl(4-O-cholesteryl))-NH2) | 1470
3 | CC[C@H](C)[C@H](NC(=O)[C@H](CCC(=O)O)NC(=O)[C@H](CCC(=O)O)NC(=O)[C@H](CC(C)C)NC(=O)[C@H](CO)NC(=O)[C@H](CCC(=O)O)NC(=O)[C@H](CCC(=O)O)NC(=O)[C@@H](NC(=O)[C@H](CCCCN)NC(=O)[C@H](CCC(=O)O)NC(=O)[C@H](CC(N)=O)NC(=O)[C@@H](NC(=O)[C@H](CCC(N)=O)NC(=O)[C@H](CC(N)=O)NC(=O)[C@@H](NC(=O)[C@H](CCCCN)NC(=O)[C@H](CCC(N)=O)NC(=O)[C@H](CC(N)=O)NC(=O)[C@H](Cc1ccccc1)NC(=O)[C@H](CCC(=O)O)NC(=O)[C@H](C)NC(=O)[C@H](Cc1ccccc1)NC(C)=O)[C@@H](C)CC)C(C)C)[C@@H](C)CC)C(=O)N[C@@H](CCCNC(=N)N)C(=O)N[C@@H](CCCCN)C(=O)N[C@@H](CO)C(=O)N[C@@H](CC(=O)O)C(=O)N[C@@H](CCC(=O)O)C(=O)N[C@@H](CCC(=O)O)C(=O)N[C@@H](CC(C)C)C(=O)N[C@@H](Cc1c[nH]cn1)C(=O)N[C@@H](CC(N)=O)C(=O)N[C@H](C(=O)N[C@@H](CC(N)=O)C(=O)N[C@@H](C)C(=O)N[C@H](C(=O)N[C@H](C(N)=O)[C@@H](C)O)[C@@H](C)O)C(C)C [Compound 8] (Ac-FAEFNQKINQVNEKIEESLEEIRKSDEELHNVNATT-NH2) | >2.12
4 | CC[C@H](C)[C@H](NC(=O)[C@H](CCCCN)NC(=O)[C@H](CCCCN)NC(=O)[C@H](CC(C)C)NC(=O)[C@H](CO)NC(=O)[C@H](CCC(=O)O)NC(=O)[C@H](CCC(=O)O)NC(=O)[C@@H](NC(=O)[C@H](CCCCN)NC(=O)[C@H](CCCCN)NC(=O)[C@H](CC(N)=O)NC(=O)[C@@H](NC(=O)[C@H](CCC(=O)O)NC(=O)[C@H](CCC(=O)O)NC(=O)[C@@H](NC(=O)[C@H](CCCCN)NC(=O)[C@H](CCCCN)NC(=O)[C@H](CC(=O)O)NC(=O)[C@H](Cc1ccccc1)NC(=O)[C@H](CCC(=O)O)NC(=O)[C@H](CC(=O)O)NC(=O)[C@H](Cc1c[nH]c2ccccc12)NC(C)=O)[C@@H](C)CC)C(C)C)[C@@H](C)CC)C(=O)N[C@@H](CCC(=O)O)C(=O)N[C@@H](CCC(=O)O)C(=O)N[C@@H](CO)C(=O)N[C@@H](CC(=O)O)C(=O)N[C@@H](CCCCN)C(=O)N[C@@H](CCCCN)C(=O)N[C@@H](CC(C)C)C(=O)N[C@@H](Cc1c[nH]cn1)C(=O)N[C@@H](CC(N)=O)C(=O)N[C@H](C(=O)N[C@@H](CCC(=O)O)C(=O)N[C@@H](C)C(=O)N[C@@H](C)C(=O)N[C@@H](C)C(=O)N[C@@H](CCCCN)C(=O)N[C@@H](CCCCNC(=O)CCC(=O)O[C@H]1CC[C@@]2(C)C(=CC[C@H]3[C@@H]4CC[C@H]([C@H](C)CCCC(C)C)[C@@]4(C)CC[C@@H]32)C1)C(N)=O)C(C)C [Compound 44] (Ac-WDEFDKKIEEVNKKIEESLKKIEESDKKLHNVEAAAKK(Succinyl(4-O-cholesteryl))-NH2) | 2137.32
5 | Ac-WDEFDASISQVNEKINQSLEEIRKSDELLHNVNALEAAAKK(Succinyl(4-O-cholesteryl))-NH2 [Compound 38] | 745.38
6 | CC[C@H](C)[C@H](NC(=O)[C@H](CCCCN)NC(=O)[C@H](CCC(=O)O)NC(=O)[C@H](CC(C)C)NC(=O)[C@H](CO)NC(=O)[C@H](CCC(N)=O)NC(=O)[C@H](CC(N)=O)NC(=O)[C@@H](NC(=O)[C@H](CCCCN)NC(=O)[C@H](CCC(=O)O)NC(=O)[C@H](CC(N)=O)NC(=O)[C@@H](NC(=O)[C@H](CCC(N)=O)NC(=O)[C@H](CO)NC(=O)[C@H](C)NC(=O)[C@H](CC(=O)O)NC(=O)[C@H](Cc1ccccc1)NC(=O)[C@@H](NC(=O)[C@H](CC(C)C)NC(=O)[C@H](CCC(=O)O)NC(=O)[C@H](CC(=O)O)NC(=O)[C@H](Cc1ccc(O)cc1)NC(C)=O)C(C)C)C(C)C)[C@@H](C)CC)C(=O)N[C@@H](CCCNC(=N)N)C(=O)N[C@@H](CCCCN)C(=O)N[C@@H](CO)C(=O)N[C@@H](CC(=O)O)C(=O)N[C@@H](CCC(=O)O)C(=O)N[C@@H](CC(C)C)C(=O)N[C@@H](CC(C)C)C(=O)N[C@@H](Cc1c[nH]cn1)C(=O)N[C@@H](CC(N)=O)C(=O)N[C@H](C(N)=O)C(C)C [Compound 23] (Ac-YDELVFDASQVNEKINQSLEKIRKSDELLHNV-NH2) | >3.43
7 | CC[C@H](C)[C@H](NC(=O)[C@H](CCCCN)NC(=O)[C@H](CCCCN)NC(=O)[C@H](CC(C)C)NC(=O)[C@H](CO)NC(=O)[C@H](CCC(=O)O)NC(=O)[C@H](CCC(=O)O)NC(=O)[C@@H](NC(=O)[C@H](CCCCN)NC(=O)[C@H](CCCCN)NC(=O)[C@H](CC(N)=O)NC(=O)[C@@H](NC(=O)[C@H](CCC(=O)O)NC(=O)[C@H](CCC(=O)O)NC(=O)[C@@H](NC(=O)[C@H](CCCCN)NC(=O)[C@H](CCCCN)NC(=O)[C@H](CC(=O)O)NC(=O)[C@H](Cc1ccccc1)NC(=O)[C@H](CCC(=O)O)NC(=O)[C@H](CC(=O)O)NC(=O)[C@H](Cc1c[nH]c2ccccc12)NC(C)=O)[C@@H](C)CC)C(C)C)[C@@H](C)CC)C(=O)N[C@@H](CCC(=O)O)C(=O)N[C@@H](CCC(=O)O)C(=O)N[C@@H](CO)C(=O)N[C@@H](CC(=O)O)C(=O)N[C@@H](CCCCN)C(=O)N[C@@H](CCCCN)C(=O)N[C@@H](CC(C)C)C(=O)N[C@@H](CCC(=O)O)C(=O)N[C@@H](CCC(=O)O)C(=O)N[C@H](C(=O)N[C@@H](CC(N)=O)C(=O)N[C@@H](CCCCN)C(=O)N[C@@H](CCCCN)C(=O)N[C@@H](CC(C)C)C(N)=O)C(C)C [Compound 5] (Ac-WDEFDKKIEEVNKKIEESLKKIEESDKKLEEVNKKL-NH2) | >7.12

Where a SMILES comes first, the peptide text is derived from it. [ ]: non-standard residue; d: D form. The star is where a group is joined. ξ: configuration not given here. Succinyl(4-O-cholesteryl) = CC(C)CCC[C@@H](C)[C@H]1CC[C@H]2[C@@H]3CC=C4C[C@@H](OC(=O)CCC(=O)*)CC[C@]4(C)[C@H]3CC[C@]12C; ξD = NC(CC(=O)O)C(=O)O
